Pooled drug test results. Numbers come from NIAID ChemDB, via PubChem.

All rows: whole-cell or culture tests; organism: HIV-1

Conditions beyond the fields shown may differ between rows. ECn: concentration that inhibits the pathogen or its effect by n%. Blank or dashed fields: not listed here.

compound | read-out | strain or isolate | changes | method | cells | result
Cc1ccncc1-c1ccc(C[C@H](C[C@H](O)CN2CCN(Cc3csc(-c4ccc(F)cc4)n3)C[C@H]2C(=O)NCC(F)(F)F)C(=O)N[C@H]2c3ccccc3OC[C@H]2O)o1 | EC50 | 4X (PR M46I L63P V82T I84V) | PR-M46I L63P V82T I84V | p24 | MT-4 | <0.0156 µM
Nc1ccn([C@H]2C[C@H](O)[C@](CO)(CF)O2)c(=O)n1 | EC50 | RT-M41L T69SSG T215Y | RT M41L T69SSG insertion T215Y | β-galactosidase | HeLa | 0.066 µM
Cc1ccncc1-c1ccc(C[C@H](C[C@H](O)CN2CCN(Cc3ncc(-c4ccc(Cl)cc4)o3)C[C@H]2C(=O)NCC(F)(F)F)C(=O)N[C@H]2c3ccccc3OC[C@H]2O)o1 | EC50 | 4X (PR M46I L63P V82T I84V) | PR-M46I L63P V82T I84V | p24 | MT-4 | <0.0625 µM
Cc1cc(C)cc(Cn2c(=S)ccn(Cc3c(F)cccc3F)c2=O)c1 | EC50 | IIIB |  |  | PBMC | 0.059 µM
Cc1cc(C)cc(Cn2cc(/C(O)=C/C(=O)C(=O)O)c3c(O)cccc32)c1 | EC50 |  |  | MTT | MT-4 | 44 µM
Cc1cn([C@H]2C[C@H](N=[N+]=[N-])[C@@H](COP(=O)(OCCSC(=O)C(C)(C)C)OCCSC(=O)C(C)(C)C)O2)c(=O)[nH]c1=O | EC50 | LAI |  | RT activity | CEM + CEM-SS | 0.0004 µM
C#C[C@]1(CO)O[C@@H](n2cc(C)c(=O)[nH]c2=O)C[C@@H]1O | EC50 |  | RT-M184I | β-galactosidase | HeLa | 0.14 µM
Cc1cc(Cn2c(=O)ccn(Cc3c(F)cccc3F)c2=O)cc(C)n1 | EC50 | IIIB |  |  | PBMC | 130 µM
Cc1ccc(CCNC(=S)Nc2ccc(Br)cn2)cc1 | EC50 | A17 | RT-K103N Y181C | p24 | PBMC | >100 µM
CC(C)=CCN1Cc2cccc3[nH]c(=S)n(c23)C[C@@H]1C | EC50 |  |  |  | CEM | 0.0204 µM
Cc1cn([C@H]2C[C@H](N=[N+]=[N-])[C@@H](CO)O2)c(=O)[nH]c1=O | EC50 | IIIB |  | p24 | C8166 | <0.08 µg/mL
CCCCCCN(C)C(=O)Oc1nsnc1-c1c(Cl)cccc1Cl | EC50 | IIIB |  | cytopathic effect / MTT | MT-4 | 0.12 µM
CCCCCCCCCCCCCCCCCC(=O)OCC(COP(=O)(O)OP(=O)(O)OC[C@@H]1CC[C@H](n2cc(C)c(=O)[nH]c2=O)O1)OC(=O)CCCCCCCCCCCCCCCCC | EC50 |  |  | plaque count | MT-4-6C + MT-4 | 1 µM
O=c1ccn(Cc2ccccc2)c(=O)[nH]1 | EC50 | IIIB |  |  | PBMC | >351 µM
Cc1ccncc1-c1ccc(C[C@H](C[C@H](O)CN2CCN(Cc3ccc(-c4ccc(Cl)cc4)o3)C[C@H]2C(=O)NCC(F)(F)F)C(=O)N[C@H]2c3ccccc3OC[C@H]2O)o1 | EC50 | NL4-3 |  | p24 | MT-4 | <0.0156 µM
Cc1cc(C)nc(Cn2c(=O)ccn(Cc3ccccc3)c2=O)c1 | EC50 | IIIB |  |  | PBMC | 7.31 µM
CC(C)(c1ncc(-c2ccc(Cl)cc2)o1)N1CCN(C[C@@H](O)C[C@@H](Cc2cc3ccncc3o2)C(=O)N[C@H]2c3ccccc3OC[C@H]2O)[C@H](C(=O)NCC(F)(F)F)C1 | EC95 | 4X (PR M46I L63P V82T I84V) | PR-M46I L63P V82T I84V | p24 | MT-4 | <0.0078 µM
Cc1ccccc1Cn1c(=O)ccn(CC#N)c1=O | EC50 | IIIB |  |  | PBMC | 192 µM
O=C(N[C@H]1c2ccccc2OC[C@H]1O)[C@H](Cc1cc2ccncc2o1)C[C@H](O)CN1CCN(Cc2ccc(-c3ccc(Cl)cc3)o2)C[C@H]1C(=O)NCC(F)(F)F | EC50 | 4X (PR M46I L63P V82T I84V) | PR-M46I L63P V82T I84V | p24 | MT-4 | <0.0313 µM
N#CCn1ccc(=O)n(Cc2cccc3ccccc23)c1=O | EC50 | IIIB |  |  | PBMC | 5.39 µM
CC(C)=CCN1Cc2cc(Cl)cc3[nH]c(=S)n(c23)C[C@@H]1C | EC50 |  | RT-D67N K70R T215Y K219Q A98G |  | MT-4 | <3 µM
CN(C)C(=O)Oc1nsnc1-c1c(Cl)cccc1Cl | EC50 | IIIB |  | cytopathic effect / MTT | MT-4 | 0.2 µM
COC(=O)[C@@H](NC(=O)[C@@H](NC(=O)CC[C@H](O)[C@H](Cc1ccccc1)NC(=O)[C@H](C)NC(=O)OCc1ccccc1)C(C)C)C(C)C | EC50 | IIIB |  | p24 | MOLT-4 | <4.2 µM
O=c1ccn(Cc2c(F)cccc2F)c(=O)n1-c1ccccc1 | EC50 | IIIB |  |  | PBMC | >204 µM
CCCCN(C)C(=O)Oc1nsnc1-c1c(Cl)cccc1Cl | EC50 | IIIB-R (RT-Y181C) | RT-Y181C | cytopathic effect / MTT | MT-4 | 7.3 µM
Cc1cn([C@H]2C[C@H](N=[N+]=[N-])[C@@H](COP(=O)(OCCCCSC(=O)C(C)(C)C)OCCCCSC(=O)C(C)(C)C)O2)c(=O)[nH]c1=O | EC50 | LAI |  | RT activity | CEM + CEM-SS | 1 µM
Cc1cn([C@H]2C[C@H](N=[N+]=[N-])[C@@H](CO)O2)c(=O)[nH]c1=O | EC50 | IIIB |  |  | PBMC | 0.0019 µM
CC[C@]1(CO)O[C@@H](n2cc(C)c(=O)[nH]c2=O)C[C@@H]1O | EC50 | RTMDR | RT | β-galactosidase | HeLa | >100 µM
Cc1ccnc2c1NC(=O)c1cccnc1N2C1CC1 | EC50 | IIIB-R (RT-Y181C) | RT-Y181C | cytopathic effect / MTT | MT-4 | >235 µM
CC(C)(c1ncc(-c2ccc(Cl)cc2)o1)N1CCN(C[C@@H](O)C[C@@H](Cc2cc3ccncc3s2)C(=O)N[C@H]2c3ccccc3OC[C@H]2O)[C@H](C(=O)NCC(F)(F)F)C1 | EC95 | 4X (PR M46I L63P V82T I84V) | PR-M46I L63P V82T I84V | p24 | MT-4 | <0.0078 µM
Cc1cn([C@@H]2O[C@H](CO[Si](C)(C)C(C)(C)C)[C@]3(C(N)=CS(=O)(=O)N3C)[C@H]2O[Si](C)(C)C(C)(C)C)c(=O)n(C)c1=O | EC50 |  | RT-K103N | cytopathic effect | CEM | >250 µM
O=c1[nH]cnc2c1ncn2[C@H]1CC[C@@H](CO)O1 | EC50 | RTMDR | RT | β-galactosidase | HeLa | 12.2 µM
Nc1ncnc2c1ncn2[C@H]1CC[C@@H](CO)O1 | EC50 | LAI |  | RT activity | CEM + CEM TK- | 1 µM
Cc1cn([C@H]2C[C@H](N=[N+]=[N-])[C@@H](CO)O2)c(=O)[nH]c1=O | EC50 | LAI |  | RT activity | CEM + CEM TK- | >100 µM
C=C[C@]1(CO)O[C@@H](n2cc(C)c(=O)[nH]c2=O)C[C@@H]1O | EC50 | LAI |  | cytopathic effect / MTT | MT-4 | 3.9 µM
COc1cc2c(c(OC)c1OC)-c1c(cc3c(c1OC)OCO3)C[C@H](C)[C@H](C)C2 | EC50 |  |  | MTT | Jurkat cells | 15 µM
Cc1cn([C@@H]2O[C@H](CO[Si](C)(C)C(C)(C)C)[C@]3(C(N)=CS(=O)(=O)N3C)[C@H]2O[Si](C)(C)C(C)(C)C)c(=O)n(C(=O)OC(C)(C)C)c1=O | EC50 |  | RT-Y181C | cytopathic effect | CEM | >10 µM
O=C(N[C@H]1c2ccccc2OC[C@H]1O)[C@H](Cc1cc2cnccc2s1)C[C@H](O)CN1CCN(Cc2ccc(-c3ccc(Cl)cc3)o2)C[C@H]1C(=O)NCC(F)(F)F | EC50 | NL4-3 |  | p24 | MT-4 | <0.0156 µM
CN(C)C(=O)Oc1nsnc1-c1ccc(Cl)c(Cl)c1 | EC50 | IIIB-R (RT-Y181C) | RT-Y181C | cytopathic effect / MTT | MT-4 | >315 µM
Cc1cn([C@H]2C[C@H](N=[N+]=[N-])[C@@H](CO)O2)c(=O)[nH]c1=O | EC50 | BaL |  | p24 | PBMC | <0.01 µM
S=C(NCCCn1ccnc1)Nc1nccs1 | EC50 | A17 | RT-Y181C | p24 | PBMC | >100 µM
COc1ccc(CN[C@@H](C(=O)N[C@H]2c3ccccc3C[C@H]2O)[C@H](O)[C@H](Cc2ccccc2)NC(=O)[C@@H](NC(=O)OCc2ccccc2)C(C)(C)C)cc1 | EC50 | IIIB |  | p24 | MT-4 | 0.058 µM